Results deposited as PubChem BioAssay AID1224833 (University of Georgia, 2016).

Aim: 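Human genes whose knock-down alters rotavirus replication in monkey cells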 (primary screen)
Cell system: monkey MA104 kidney cells
Reagent: siRNA pool against human genes, 50 nM
Timing: 48 h knock-down before infection; read 24 h after infection
Challenge: infection with rotavirus strain RV3 two days after transfection; infectious dose for this stage not given
Measured: 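Rotavirus antigen per well by fluorescent immunoassay, normalised to non-targeting control wells on each plate and given as a standard z-score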
Reading the numbers: z-score vs non-targeting control: higher = more rotavirus replication than with non-targeting control
Active means: In these data the active calls have z-score vs non-targeting control at about -1 or lower, or at about 1 or higher
Meaning of the calls: active = z-score beyond 1 either way; inactive = z-score within 1 of zero
This is one part, drawn at random, of about 12,000 deposited reagents. In the full data, about 5,600 (46%) were called active. 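Active calls cover z-scores past 1 in both directions, so they include lowered as well as raised rotavirus replication.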 Unmarked entries are inactive.

| gene symbol | z-score vs non-targeting control |
| --- | --- |
| BCL6 (BCL6 transcription repressor) | -0.883 |
| MTRES1 (mitochondrial transcription rescue factor 1) | -3.93 (active) |
| ZFYVE9 (zinc finger FYVE-type containing 9) | -0.634 |
| PIF1 (PIF1 5'-to-3' DNA helicase) | -1.24 (active) |
| ARHGAP36 (Rho GTPase activating protein 36) | 0.909 |
| ICAM5 (intercellular adhesion molecule 5) | -0.699 |
| IL17A (interleukin 17A) | 0.892 |
| KRTAP9-2 (keratin associated protein 9-2) | -0.754 |
| PHIP (PHIP subunit of CUL4-Ring ligase complex) | -1.1 (active) |
| NFE4 (nuclear factor, erythroid 4) | -1.3 (active) |
| POLR2E (RNA polymerase II, I and III subunit E) | -1.95 (active) |
| PPIB (peptidylprolyl isomerase B) | -1.77 (active) |
| PTCH1 (patched 1) | -1.1 (active) |
| SLCO4A1 | -2.01 (active) |
| LIPI (lipase I) | -0.877 |
| KRTAP5-2 (keratin associated protein 5-2) | 0.0298 |
| KRT76 (keratin 76) | -0.413 |
| NLRP8 (NLR family pyrin domain containing 8) | -2.05 (active) |
| SPI1 (Spi-1 proto-oncogene) | -0.618 |
| SEC22C (SEC22 homolog C, vesicle trafficking protein) | 0.364 |
| ZNF100 (zinc finger protein 100) | -0.15 |
| ESS2 (ess-2 spliceosome associated protein) | -1.49 (active) |
| NIBAN2 (niban apoptosis regulator 2) | 1.01 (active) |
| BLOC1S2 (biogenesis of lysosomal organelles complex 1 subunit 2) | -0.0968 |
| CELA1 (chymotrypsin like elastase 1) | 0.86 |
| CSN1S1 (casein alpha s1) | -1.64 (active) |
| RABL2A (RAB, member of RAS oncogene family like 2A) | -0.642 |
| HNRNPA3 (heterogeneous nuclear ribonucleoprotein A3) | 0.828 |
| VSIG2 (V-set and immunoglobulin domain containing 2) | -0.09 |
| MYRF (myelin regulatory factor) | 0.169 |
| GCM1 (GCM transcription factor 1) | 0.224 |
| TRAFD1 (TRAF-type zinc finger domain containing 1) | -1.56 (active) |
| RPL22 (ribosomal protein L22) | 1.91 (active) |
| ZDHHC6 (zDHHC palmitoyltransferase 6) | 0.175 |
| ZNF576 (zinc finger protein 576) | 0.437 |
| EPS15 (epidermal growth factor receptor pathway substrate 15) | -1.41 (active) |
| INSIG1 (insulin induced gene 1) | -0.86 |
| FRAT2 (FRAT regulator of Wnt signaling pathway 2) | -2.39 (active) |
| SMARCAD1 (SNF2 related chromatin remodeling ATPase with DExD box 1) | -1.87 (active) |
| CXorf66 (chromosome X open reading frame 66) | 1.65 (active) |
| VKORC1L1 (vitamin K epoxide reductase complex subunit 1L1) | -0.779 |
| BID (BH3 interacting domain death agonist) | -2.82 (active) |
| FGF3 (fibroblast growth factor 3) | -1.13 (active) |
| COL17A1 (collagen type XVII alpha 1 chain) | -1.11 (active) |
| GPR65 (G protein-coupled receptor 65) | -1.4 (active) |
| GPR173 (G protein-coupled receptor 173) | -1.14 (active) |
| STAG3 (STAG3 cohesin complex component) | -0.282 |
| CTSC (cathepsin C) | -0.855 |
| TXK (TXK tyrosine kinase) | -1.2 (active) |
| ZNF382 (zinc finger protein 382) | -2.43 (active) |
| UNC119 (unc-119 lipid binding chaperone) | 0.889 |
| CXCR4 (C-X-C motif chemokine receptor 4) | -1.04 (active) |
| SENP1 (SUMO specific peptidase 1) | 1.96 (active) |
| WFDC12 (WAP four-disulfide core domain 12) | -0.022 |
| SPRR2G (small proline rich protein 2G) | -0.0018 |
| BOD1 (biorientation of chromosomes in cell division 1) | -1.89 (active) |
| MTERF4 (mitochondrial transcription termination factor 4) | 2.25 (active) |
| CETP (cholesteryl ester transfer protein) | -1.47 (active) |
| SLC18B1 | -0.883 |
| ASL (argininosuccinate lyase) | -2.03 (active) |
| MUS81 (MUS81 structure-specific endonuclease subunit) | -3.31 (active) |
| EIF5A2 (eukaryotic translation initiation factor 5A2) | -1.74 (active) |
| SYNGR4 (synaptogyrin 4) | -0.724 |
| GALNT1 (polypeptide N-acetylgalactosaminyltransferase 1) | 0.955 |
| ZNF581 (zinc finger protein 581) | -1.93 (active) |
| CSTF3 (cleavage stimulation factor subunit 3) | -0.819 |
| TMEM143 (transmembrane protein 143) | 1.2 (active) |
| DEFB107B (defensin beta 107B) | -1.68 (active) |
| PAPPA (pappalysin 1) | 1.14 (active) |
| SUSD2 (sushi domain containing 2) | -2.86 (active) |
| YWHAH | -1.19 (active) |
| EPO (erythropoietin) | -0.43 |
| ZNF792 (zinc finger protein 792) | 0.492 |
| ZNF707 (zinc finger protein 707) | -2.18 (active) |
| ATPAF1 (ATP synthase mitochondrial F1 complex assembly factor 1) | -2.34 (active) |
| ATP5MG (ATP synthase membrane subunit g) | -0.528 |
| FOXE3 (forkhead box E3) | -0.897 |
| CORO6 (coronin 6) | 1.66 (active) |
| FUZ (fuzzy planar cell polarity protein) | -0.465 |
| CTSW (cathepsin W) | 0.787 |
| E2F4 (E2F transcription factor 4) | -2.18 (active) |
| C10orf88 (chromosome 10 open reading frame 88) | -1.02 (active) |
| GPR174 (G protein-coupled receptor 174) | 0.725 |
| EIF4A1 (eukaryotic translation initiation factor 4A1) | 1.68 (active) |
| NINJ2 (ninjurin 2) | -0.483 |

As entered above.
BOD1 (biorientation of chromosomes in cell division 1), z-score vs non-targeting control = -1.89 (active)
SLC18B1, z-score vs non-targeting control: -0.883
TXK (TXK tyrosine kinase), z-score vs non-targeting control: -1.2 (active)
For “z-score vs non-targeting control”, IL17A (interleukin 17A) reads 0.892
Under “z-score vs non-targeting control”, NIBAN2 (niban apoptosis regulator 2) has 1.01 (active)
Result of GPR65 (G protein-coupled receptor 65) under “z-score vs non-targeting control”: -1.4 (active)

The results go on.
| gene symbol | z-score vs non-targeting control |
| --- | --- |
| ARHGAP11A (Rho GTPase activating protein 11A) | 0.422 |
| ALOX5AP (arachidonate 5-lipoxygenase activating protein) | -1.07 (active) |
| ACADS (acyl-CoA dehydrogenase short chain) | -1.04 (active) |
| VCPIP1 (valosin containing protein interacting protein 1) | -0.209 |
| DAB2 (DAB adaptor protein 2) | 0.606 |
| ZNF214 (zinc finger protein 214) | -2.25 (active) |
| JPH4 (junctophilin 4) | 0.982 |
| HOMER2 (homer scaffold protein 2) | 0.0738 |
| ATP6V1G2 (ATPase H+ transporting V1 subunit G2) | 1.47 (active) |
| HSPB1 (heat shock protein family B (small) member 1) | -1.1 (active) |
| CEP128 (centrosomal protein 128) | 0.147 |
| GGT5 (gamma-glutamyltransferase 5) | 2.24 (active) |
| KRT33A (keratin 33A) | -0.869 |
| HMOX2 (heme oxygenase 2) | -2.98 (active) |
| RASGEF1B (RasGEF domain family member 1B) | -1.28 (active) |
| POLD2 (DNA polymerase delta 2, accessory subunit) | -0.704 |
| EMC9 (ER membrane protein complex subunit 9) | 0.822 |
| NUP107 (nucleoporin 107) | 2.24 (active) |
| WASL (WASP like actin nucleation promoting factor) | -0.0084 |
| FAM53B (family with sequence similarity 53 member B) | 1.06 (active) |
| SLC10A1 | -1.48 (active) |
| PGAP4 (post-GPI attachment to proteins GalNAc transferase 4) | -1.04 (active) |
| TCTA (T cell leukemia translocation altered) | 2.59 (active) |
| BNIP1 (BCL2 interacting protein 1) | -1.61 (active) |
| ZNF622 (zinc finger protein 622) | 1.3 (active) |
| TMEM33 (transmembrane protein 33) | -0.524 |
| IL10RB (interleukin 10 receptor subunit beta) | -0.381 |
| UPF3B (UPF3B regulator of nonsense mediated mRNA decay) | -2.12 (active) |
| TAFA3 (TAFA chemokine like family member 3) | -0.0328 |
| CAPN3 (calpain 3) | 0.54 |
| KDM3B (lysine demethylase 3B) | -1.06 (active) |
| PER2 (period circadian regulator 2) | 0.96 |
| BCLAF3 (BCLAF1 and THRAP3 family member 3) | -0.125 |
| SPRYD7 (SPRY domain containing 7) | -1.28 (active) |
| RAB27B (RAB27B, member RAS oncogene family) | 1.69 (active) |
| ACTRT2 (actin related protein T2) | -0.176 |
| STN1 (STN1 subunit of CST complex) | 1.65 (active) |
| XRCC2 (X-ray repair cross complementing 2) | -1.52 (active) |
| IFT38 (intraflagellar transport 38) | 1.04 (active) |
| PINX1 (PIN2 (TERF1) interacting telomerase inhibitor 1) | -0.187 |
| TENM2 (teneurin transmembrane protein 2) | -0.651 |
| KARS1 (lysyl-tRNA synthetase 1) | -1.45 (active) |
| OPN3 (opsin 3) | 0.709 |
| ZBTB26 (zinc finger and BTB domain containing 26) | -0.191 |
| IL15RA (interleukin 15 receptor subunit alpha) | -0.0982 |
| PRAP1 (proline rich acidic protein 1) | -0.133 |
| MAP7 (microtubule associated protein 7) | -0.59 |
| CMTM5 (CKLF like MARVEL transmembrane domain containing 5) | -0.374 |
| FRG2B (FSHD region gene 2 family member B) | -0.808 |
| NPPA (natriuretic peptide A) | -0.788 |
| FADS1 (fatty acid desaturase 1) | -2 (active) |
| SNX6 (sorting nexin 6) | -0.889 |
| RAB3B (RAB3B, member RAS oncogene family) | -1.43 (active) |
| EPB41L5 (erythrocyte membrane protein band 4.1 like 5) | -1.32 (active) |
| AFF2 (ALF transcription elongation factor 2) | -1.05 (active) |
